Compound potency records, mixed from different reports. Data source: NIAID ChemDB in PubChem.

All rows: enzyme or target tests

ICn is the concentration giving n% inhibition.

compound	dose	target	method	measure	agent	strain or isolate	result
Cc1cn([C@H]2CC[C@@H](O)O2)c(=O)[nH]c1=O	-	Thymidine monophosphate kinase	absorbance	Ki	Mycobacterium tuberculosis	-	27 µM
C[C@]1(Cn2ccnn2)[C@H](C(=O)O)N2C(=O)C[C@H]2S1(=O)=O	-	Beta-lactamase	-	IC50	Mycobacterium tuberculosis	TB2	1 µg/mL
O=c1oc(/C=C/C(F)(F)F)ns1	-	Proteasome	broth dilution / fluorescence	IC50	Mycobacterium tuberculosis	-	38 µM
Cc1ccc(C(=O)O)cc1-n1c(C)ccc1C	-	Protein tyrosine phosphatase A	-	Ki	Mycobacterium tuberculosis	-	28 µM
Nc1nc(N)c2cc(COC(=O)c3ccoc3)ccc2n1	-	Dihydrofolate reductase	-	IC50	Mycobacterium avium	-	0.1 µM
Cc1cn([C@@H]2O[C@H](CO)[C@@H](O)[C@H]2O)c(=O)[nH]c1=O	-	Thymidylate kinase	-	Ki	Mycobacterium tuberculosis	-	715 µM
Cc1cc(C)cc(C(=O)OCc2ccc3nc(N)nc(N)c3c2)c1	-	Dihydrofolate reductase	-	IC50	Mycobacterium avium	-	0.1 µM
Cc1ccc(C(F)(F)F)cc1CNCc1cc(C(=N)C2CC2)c(Nc2ccccc2)[nH]c1=O	-	Decaprenylphosphoryl-D-ribose oxidase	fluorescence	IC50	Mycobacterium tuberculosis	-	0.01 µM
C=CC(C)(C)c1c(OC)oc(-c2ccccc2)cc1=O	100 µM	MurE	absorbance	inhibition	Mycobacterium tuberculosis	-	7%
O=c1oc(/C=C/c2ccc(C(F)(F)F)cc2)ns1	-	Proteasome	broth dilution / fluorescence	IC50	Mycobacterium tuberculosis	-	0.64 µM
O=C1CSC(=O)N1	-	N-acetyltransferase	-	IC50	Mycobacterium smegmatis	-	>100 µM
Cc1cn(CCCCN2C(=O)c3cccc4cccc(c34)C2=O)c(=O)[nH]c1=O	-	Thymidine monophosphate kinase	absorbance	Ki	Mycobacterium tuberculosis	-	42 µM
Nc1nc(N)c2cc(COC(=O)c3cccc(I)c3)ccc2n1	-	Dihydrofolate reductase	-	IC50	Mycobacterium avium	-	0.05 µM
CCN(CC)c1nc(Cl)nc(Nc2ccc3cc(-c4ccccc4)c(=O)oc3c2)n1	-	Thiamin phosphate synthase	-	IC50	Mycobacterium tuberculosis	-	>100 µg/mL
NNC(=O)c1ccncc1	-	Catalase-peroxidase	-	Ki	Mycobacterium tuberculosis	-	4.3 µM
CO[C@H]1/C=C/O[C@@]2(C)Oc3c(C)c(O)c4c(=O)c(c5oc6cc(N7CCN(CC(C)C)CC7)cc(=O)c6nc5c4c3=C2O)NC(=O)/C(C)=C\C=C\[C@H](C)[C@H](O)[C@@H](C)[C@@H](O)[C@@H](C)[C@H](OC(C)=O)[C@@H]1C	0.5 µg/mL	RNA polymerase	-	inhibition	Mycobacterium avium	N-265	58%
CCn1cnc(-c2nc(N3CC[C@@H](NC(=O)c4[nH]c(C)c(Cl)c4Br)[C@@H](OC)C3)sc2C(=O)O)n1	-	DNA gyrase holoenzyme	gel	IC50	Mycobacterium tuberculosis	H37Rv	<0.005 µM
CCCCCCCCCCCC[C@@H]1OC(=O)[C@H](COCc2ccccc2)NC(=O)[C@H](C(C)O)NC(=O)[C@H](C(C)C)NC(=O)[C@H]1C	-	Protein tyrosine phosphatase A	-	IC50	Mycobacterium tuberculosis	-	>30 µM
O=C1C=CC(O)(c2nc3ccccc3o2)C=C1	-	Thioredoxin reductase	-	IC50	Mycobacterium tuberculosis	H37Rv	50 µM
Cc1ccc(C)n1-c1cc(C(=O)O)ccc1O	-	Protein tyrosine phosphatase A	-	Ki	Mycobacterium tuberculosis	-	1.9 µM
[2H]C([2H])([2H])OC(=O)N/C=C/CCCc1cc(O)c(C(=O)/C(C)=C/c2cnc(Oc3ccc(F)c(Cl)c3)s2)c(=O)o1	-	RNA polymerase	nucleotide incorporation / fluorescence	IC50	Mycobacterium tuberculosis	-	0.03 µM
Cc1cn(C/C=C\CN2C(=O)c3cccc4cccc(c34)C2O)c(=O)[nH]c1=O	-	Thymidine monophosphate kinase	absorbance	Ki	Mycobacterium tuberculosis	-	4.7 µM
Cc1cn([C@H]2C[C@H](CN=C(N)C[C@H]3C[C@H](n4cc(C)c(=O)[nH]c4=O)O[C@@H]3CO)[C@@H](CO)O2)c(=O)[nH]c1=O	-	Thymidine monophosphate kinase	-	Ki	Mycobacterium tuberculosis	H37Rv	37 µM
C=C/C(C)=C/[C@@]1(C)SC(=O)C(C)=C1O	-	FAS-II synthetase	-	IC50	Mycobacterium smegmatis	-	60 µg/mL
COC(=O)[C@@H](NC(=O)NCC(=O)N[C@H]1CCCCNC(=O)/C=C/[C@H](Cc2c[nH]c3ccccc23)NC1=O)C(C)C	-	Proteasome	substrate cleavage / fluorescence	IC50	Mycobacterium tuberculosis	-	0.144 µM
O=c1oc(-c2ccccc2)ns1	-	Proteasome	broth dilution / fluorescence	IC50	Mycobacterium tuberculosis	-	1.35 µM
COCCn1cnc(-c2nc(N3CC[C@@H](NC(=O)c4[nH]c(C)c(Cl)c4Br)[C@@H](OC)C3)sc2C(=O)O)n1	-	DNA gyrase holoenzyme	gel	IC50	Mycobacterium tuberculosis	H37Rv	<0.005 µM
COc1cc(NCc2cnc3nc(N)nc(N)c3c2C)cc(OC)c1	-	DHFR	-	IC50	Mycobacterium avium complex	-	0.00064 µM
Oc1ccc2ccccc2c1Oc1ccccc1	-	Enoyl reductase	-	IC50	Mycobacterium tuberculosis	-	>200 µM
CO[C@H]1CN(c2nc(-c3ncn(C)n3)c(C(=O)O)s2)CC[C@H]1NC(=O)c1[nH]c(C)c(Br)c1Cl	-	DNA gyrase holoenzyme	gel	IC50	Mycobacterium tuberculosis	H37Rv	<0.005 µM
Cc1cc(O)c(C(C)C)cc1N=Cc1cc([N+](=O)[O-])ccc1O	-	Thiamin phosphate synthase	-	IC50	Mycobacterium tuberculosis	-	34 µg/mL
Nc1nc(N)c2cc(COC(=O)c3ccccc3-c3ccccc3)ccc2n1	-	Dihydrofolate reductase	-	IC50	Mycobacterium avium	-	0.32 µM
O=C(O)c1cnccn1	-	Fatty acid synthase I	-	IC50	Mycobacterium smegmatis	-	>600 µg/mL
Cc1ccc(Oc2ccccc2)c(O)c1	-	Enoyl reductase	-	Ki	Mycobacterium tuberculosis	-	4.2 µM
Nc1nc(N)c2cc(COC(=O)c3cccc4ccccc34)ccc2n1	-	Dihydrofolate reductase	-	IC50	Mycobacterium avium	-	0.078 µM
COc1c(N2CCN(C(=O)C3COc4ccccc4O3)CC2)c(F)c([N+](=O)[O-])c2c(=O)c(C(=O)O)cn(C3CC3)c12	-	DNA gyrase	gel	IC50	Mycobacterium smegmatis	ATCC 14468	>50 µM
Nc1nc(N)c2cc(COC(=O)c3ccsc3)ccc2n1	-	Dihydrofolate reductase	-	IC50	Mycobacterium avium	-	0.18 µM
Cc1onc(-c2ccccc2Cl)c1C(=O)N[C@@H]1C(=O)N2[C@@H]1SC(C)(C)[C@@H]2C(=O)O	-	Beta-lactamase	-	IC50	Mycobacterium tuberculosis	TB2	1 µg/mL
Nc1nc(N)c2cc(COC(=O)c3ccc(-c4ccccc4)cc3)ccc2n1	-	Dihydrofolate reductase	-	IC50	Mycobacterium avium	-	1.5 µM
NNC(=O)c1ccncc1	1000 µM	Isocitrate lyase	-	inhibition	Mycobacterium tuberculosis	H37RV (INH 10 ug/mL-R)	43%
O=C1C=CC(O)(c2cc3ccccc3s2)C=C1	-	Thioredoxin reductase	-	IC50	Mycobacterium tuberculosis	H37Rv	322 µM
Oc1ccccc1Oc1ccccc1	-	Enoyl reductase	-	Ki	Mycobacterium tuberculosis	-	7 µM
Cc1cn([C@@H]2C[C@H](O)[C@@H](CNC(=S)Nc3ccc(Cl)c(C(F)(F)F)c3)O2)c(=O)[nH]c1=O	-	TMPKmt	absorbance	Ki	Mycobacterium tuberculosis	-	0.6 µM
Cc1cn(CC#CCN2C(=O)c3cccc4cccc(c34)C2=O)c(=O)[nH]c1=O	-	Thymidine monophosphate kinase	absorbance	Ki	Mycobacterium tuberculosis	-	>100 µM
CCCCCCCc1ccc(Oc2ccccc2)c(O)c1	-	Enoyl reductase	-	IC50	Mycobacterium tuberculosis	-	0.005 µM
O=C1C=CC(O)(c2ccc3ccccc3c2)C=C1	-	Thioredoxin reductase	-	IC50	Mycobacterium tuberculosis	H37Rv	271 µM
C/C(=C1\C=CC=N1)c1ccc(-c2[nH]ccc2Cl)o1	-	Protein tyrosine phosphatase A	-	IC50	Mycobacterium tuberculosis	-	>30 µM
Cc1cn([C@@H]2O[C@H](CO)[C@@H](CN)[C@H]2F)c(=O)[nH]c1=O	-	Thymidine monophosphate kinase	-	Ki	Mycobacterium tuberculosis	H37Rv	>1000 µM
COc1cc(CCc2cnc3nc(N)nc(N)c3c2C)cc(OC)c1	-	Dihydrofolate reductase	-	IC50	Mycobacterium avium complex	-	0.0015 µM
COC1=CC2=N/C1=C\c1ccc([nH]1)CCCC/C=C/CCCC1=CC=C2O1	-	Protein tyrosine phosphatase A	-	IC50	Mycobacterium tuberculosis	-	>30 µM
O=c1oc(-c2cccc(F)c2)ns1	-	Proteasome	broth dilution / fluorescence	IC50	Mycobacterium tuberculosis	-	0.63 µM
O=C(NO)C(O)C(O)COP(=O)([O-])[O-]	-	Ribose-5-phosphate isomerase	-	IC50	Mycobacterium tuberculosis	-	40 µM

A second listing of 5 rows from above:

compound,dose,target,method,measure,agent,strain or isolate,result
[2H]C([2H])([2H])OC(=O)N/C=C/CCCc1cc(O)c(C(=O)/C(C)=C/c2cnc(Oc3ccc(F)c(Cl)c3)s2)c(=O)o1,-,RNA polymerase,nucleotide incorporation / fluorescence,IC50,Mycobacterium tuberculosis,-,0.03 µM
COC1=CC2=N/C1=C\c1ccc([nH]1)CCCC/C=C/CCCC1=CC=C2O1,-,Protein tyrosine phosphatase A,-,IC50,Mycobacterium tuberculosis,-,>30 µM
O=C1C=CC(O)(c2nc3ccccc3o2)C=C1,-,Thioredoxin reductase,-,IC50,Mycobacterium tuberculosis,H37Rv,50 µM
COCCn1cnc(-c2nc(N3CC[C@@H](NC(=O)c4[nH]c(C)c(Cl)c4Br)[C@@H](OC)C3)sc2C(=O)O)n1,-,DNA gyrase holoenzyme,gel,IC50,Mycobacterium tuberculosis,H37Rv,<0.005 µM
Nc1nc(N)c2cc(COC(=O)c3cccc4ccccc34)ccc2n1,-,Dihydrofolate reductase,-,IC50,Mycobacterium avium,-,0.078 µM

An empty or dashed field is not shown. Neighbouring rows are from separate reports. Inhibition is in % at the dose shown (toxicity tests: loss of growth or viability).